Measured data: PubChem BioAssay AID1224833 (University of Georgia, 2016)

Purpose: 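Host factors restraining rotavirus as candidate antiviral genes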 (primary screen)
Cell system: monkey MA104 kidney cells
Reagents: siRNA pool against human genes, 50 nM
Timing: 48 h knock-down before infection; read 24 h after infection
Conditions: infection with rotavirus strain RV3 two days after transfection; infectious dose for this stage not given
Measurement: 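z-score of rotavirus antigen signal per well, from a fluorescent immunoassay, relative to non-targeting control wells on the same plate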
Scale: z-score vs non-targeting control: higher = more rotavirus replication than with non-targeting control
Active means: In these data the active calls have z-score vs non-targeting control at about -1 or lower, or at about 1 or higher
Meaning of the calls: active = z-score beyond 1 either way; inactive = z-score within 1 of zero
The deposit covers about 12,000 reagents; this is a random part of them. About 5,600 of them (46%) were called active. 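Active calls cover z-scores past 1 in both directions, so they include lowered as well as raised rotavirus replication.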 A number with no mark means an inactive call. No sequences are given here.

{"target":"H3C10 (H3 clustered histone 10)","z-score vs non-targeting control":"1.1 (active)"}
{"target":"ERCC8 (ERCC excision repair 8, CSA ubiquitin ligase complex subunit)","z-score vs non-targeting control":"2.12 (active)"}
{"target":"TENT2 (terminal nucleotidyltransferase 2)","z-score vs non-targeting control":"-1.08 (active)"}
{"target":"BARX1 (BARX homeobox 1)","z-score vs non-targeting control":"-1.97 (active)"}
{"target":"COX7A2 (cytochrome c oxidase subunit 7A2)","z-score vs non-targeting control":"2.15 (active)"}
{"target":"CXCL1 (C-X-C motif chemokine ligand 1)","z-score vs non-targeting control":"-2.25 (active)"}
{"target":"HS3ST2 (heparan sulfate-glucosamine 3-sulfotransferase 2)","z-score vs non-targeting control":"2.21 (active)"}
{"target":"TXNDC12 (thioredoxin domain containing 12)","z-score vs non-targeting control":"-1.2 (active)"}
{"target":"KRABD5 (KRAB domain containing 5)","z-score vs non-targeting control":"-1.84 (active)"}
{"target":"DPM2 (dolichyl-phosphate mannosyltransferase subunit 2, regulatory)","z-score vs non-targeting control":"-1.58 (active)"}
{"target":"H4C4 (H4 clustered histone 4)","z-score vs non-targeting control":0.197}
{"target":"SPP1 (secreted phosphoprotein 1)","z-score vs non-targeting control":-0.744}
{"target":"KRR1 (KRR1 small subunit processome component)","z-score vs non-targeting control":"-1.63 (active)"}
{"target":"DRAXIN (dorsal inhibitory axon guidance protein)","z-score vs non-targeting control":"1.28 (active)"}
{"target":"SLC4A10","z-score vs non-targeting control":"-1.99 (active)"}
{"target":"SARAF (store-operated calcium entry associated regulatory factor)","z-score vs non-targeting control":"1.07 (active)"}
{"target":"SHISA6 (shisa family member 6)","z-score vs non-targeting control":-0.864}
{"target":"TMEM147 (transmembrane protein 147)","z-score vs non-targeting control":-0.0063}
{"target":"GPC5 (glypican 5)","z-score vs non-targeting control":"-2.07 (active)"}
{"target":"FGF22 (fibroblast growth factor 22)","z-score vs non-targeting control":"-2.84 (active)"}
{"target":"IL20RB (interleukin 20 receptor subunit beta)","z-score vs non-targeting control":-0.607}
{"target":"SS18L2 (SS18 like 2)","z-score vs non-targeting control":-0.798}
{"target":"SCHIP1 (schwannomin interacting protein 1)","z-score vs non-targeting control":-0.874}
{"target":"TBKBP1 (TBK1 binding protein 1)","z-score vs non-targeting control":0.422}
{"target":"SEMA3C (semaphorin 3C)","z-score vs non-targeting control":"-1.39 (active)"}
{"target":"KRT16 (keratin 16)","z-score vs non-targeting control":-0.974}
{"target":"RHOJ (ras homolog family member J)","z-score vs non-targeting control":"-1.06 (active)"}
{"target":"TONSL (tonsoku like, DNA repair protein)","z-score vs non-targeting control":0.805}
{"target":"ZNF287 (zinc finger protein 287)","z-score vs non-targeting control":0.716}
{"target":"BEND6 (BEN domain containing 6)","z-score vs non-targeting control":"-1.53 (active)"}
{"target":"AMMECR1 (AMMECR nuclear protein 1)","z-score vs non-targeting control":"-2.38 (active)"}
{"target":"ARHGEF1 (Rho guanine nucleotide exchange factor 1)","z-score vs non-targeting control":"-2.34 (active)"}
{"target":"PCDH18 (protocadherin 18)","z-score vs non-targeting control":-0.075}
{"target":"JAG2 (jagged canonical Notch ligand 2)","z-score vs non-targeting control":"-3.07 (active)"}
{"target":"AHR (aryl hydrocarbon receptor)","z-score vs non-targeting control":"-1.78 (active)"}
{"target":"MED13L (mediator complex subunit 13L)","z-score vs non-targeting control":"1.19 (active)"}
{"target":"TENT4B (terminal nucleotidyltransferase 4B)","z-score vs non-targeting control":"1.67 (active)"}
{"target":"CPLX4 (complexin 4)","z-score vs non-targeting control":"-1.7 (active)"}
{"target":"HMGN1 (high mobility group nucleosome binding domain 1)","z-score vs non-targeting control":"3.76 (active)"}
{"target":"GBGT1","z-score vs non-targeting control":-0.698}
{"target":"SENP5 (SUMO specific peptidase 5)","z-score vs non-targeting control":0.93}
{"target":"OR8B12 (olfactory receptor family 8 subfamily B member 12)","z-score vs non-targeting control":-0.196}
{"target":"CENPV (centromere protein V)","z-score vs non-targeting control":0.671}
{"target":"CDC42 (cell division cycle 42)","z-score vs non-targeting control":0.574}
{"target":"SHH (sonic hedgehog signaling molecule)","z-score vs non-targeting control":0.79}
{"target":"TINF2 (TERF1 interacting nuclear factor 2)","z-score vs non-targeting control":-0.502}
{"target":"SMYD1 (SET and MYND domain containing 1)","z-score vs non-targeting control":"-1.23 (active)"}
